Reference: publication PMC7221740, “Cyclic Synthetic Peroxides Inhibit Growth of Entomopathogenic Fungus Ascosphaera apis without Toxic Effect on Bumblebees” (Molecules, 2020)
In brackets after ≈: the same amount, converted by molar mass.

Test system: Ascosphaera apis
Assay: Inhibition of radial growth of Ascosphaera apis mycelium in potato-saccharose agar
Assay type: cell-based
Details: 72 h; for Mycelium Growth Inhibition (I), %: A. apis, concentration 30 mg/L, potato-saccharose agar, 25 °C; for EC50 (mg/L) ± SD, fungicidal activity: A. apis mycelium growth

Compound | Mycelium Growth Inhibition (I), % | EC50 (mg/L) ± SD, fungicidal activity
CCCCCCC1C2(C)OOC1(C)OO2 (stereo not drawn) | 49% | 
CCCCCC1C2(C)OOC1(C)OO2 (stereo not drawn) | 100% | 7.5 ± 1.0 mg/L (≈ 37.1 µM)
C=CCC1C2(C)OOC1(C)OO2 (stereo not drawn) | 100% | 10.9 ± 0.7 mg/L (≈ 63.3 µM)
CC(C)CCC1C2(C)OOC1(C)OO2 (stereo not drawn) | 66% | 
